For two compounds, IC50 results are on record in ChEMBL document CHEMBL1155139 (Antimicrob Agents Chemother, 2007).

Molecules are shown by their SMILES. Converted amounts (≈) assume the structure as drawn.

The test system of test [1] is Plasmodium falciparum. The test is described as follows: Antimalarial activity against Plasmodium falciparum W2.
The test system of test [2] is Plasmodium falciparum. The test is described as follows: Antimalarial activity against Plasmodium falciparum D6.
The subject of test [3] is Plasmodium falciparum. As to the kind of experiment: Antimalarial activity against Plasmodium falciparum K1. It is filed as functional, organism-based.
Test [4] deals with Plasmodium falciparum. The test is described as follows: Antimalarial activity against Plasmodium falciparum NF54. The format is functional, organism-based.

One may read the IC50 as the concentration that gives 50% inhibition. Low values mean greater potency in that assay, high ones weaker potency in that assay.

Turning to `C1CC2(CCO1)OOC1(CCOCC1)OO2`, the IC50 in the test on Plasmodium falciparum [1] was determined as 0.068 µg/mL (≈ 0.293 µM); with Plasmodium falciparum [2], 0.1 µg/mL (≈ 0.431 µM); with Plasmodium falciparum [3], 0.078 µg/mL (≈ 0.336 µM); in the test on Plasmodium falciparum [4], 0.044 µg/mL (≈ 0.189 µM).

For `C1CCC2(C1)OOC1(CCCC1)OO2`, the results for the IC50 with Plasmodium falciparum [3] and in the test with Plasmodium falciparum [4] were 0.051 µg/mL (≈ 0.255 µM) and 0.023 µg/mL (≈ 0.115 µM), respectively.
